These are literature values, as cited in paper PMC12271536.

The test system of series [1] is MPro^WT. Conditions: 28 °C, cited from earlier work; for ΔG / ΔH / ΔS: ITC; for 1/Ka (Kd): buffer B, 30 µM protein, previous ITC results.
The subject of series [2] is MPro^WT. Conditions: DSF; cited from earlier work.

Regarding `CC(C)(C)[C@H](NC(=O)C(F)(F)F)C(=O)N1C[C@H]2[C@@H]([C@H]1C(=O)N[C@H](C#N)C[C@@H]1CCNC1=O)C2(C)C`, in the series on MPro^WT [1], the ΔG result is “–11.2 kcal/mol”, the ΔH entry is listed as “–10.8 ± 0.70 kcal/mol”, the ΔS was 1.57 cal/mol/K and the “1/Ka (Kd)” value was 7 ± 3 nM.
As for `Cn1cnc(Cn2c(=O)[nH]/c(=N\c3cc4cn(C)nc4cc3Cl)n(Cc3cc(F)c(F)cc3F)c2=O)n1`, in the series with MPro^WT [1], the ΔG is -11.2 kcal/mol, the ΔH is -15.4 ± 0.01 kcal/mol, the ΔS is −13.9 cal/mol/K and the “1/Ka (Kd)” value is 6 ± 3 nM.
Turning to GC373, in the series with MPro^WT [1], the ΔH was -6.7 ± 0.10 kcal/mol, the ΔS was 9.1 cal/mol/K and the “1/Ka (Kd)” value is 150 ± 30 nM. For the same compound, the “ΔTm (difference in Tm in presence and absence of inhibitor)” value in the series with MPro^WT [2] was 19.8 °C.
